Compound potency records, mixed from different reports. Data source: NIAID ChemDB in PubChem.

All rows: tests in culture; agent: Herpes simplex virus 1; cell line: HEL; method: cytopathic effect; measure: EC50

Neighbouring rows are from separate reports. An empty or dashed field is not shown. ECn is the concentration giving n% inhibition of infection, replication or growth.

CC(C)NS(=O)(=O)c1ccccc1-c1n[nH]c(=S)o1 ; strain or isolate: KOS ; result: >100 µM
Nn1c(-c2cn(-c3ccccc3)nc2-c2ccccc2)n[nH]c1=S ; strain or isolate: KOS (TK-) ; result: >80 µg/mL
O=c1c2ncn(COCCO)c2nc2[nH]c(-c3ccc(C(F)(F)F)cc3)cn12 ; strain or isolate: F ; result: 16 µg/mL
CCCCCCCC/C=C/CCCCCCCC(=O)O ; strain or isolate: HU-3 ; result: >100 µM
CCOC(=O)Sc1nnc(-c2cn(-c3ccccc3)nc2-c2ccccc2)n1N ; strain or isolate: KOS (TK-) ; result: >16 µg/mL
C/C(=N/Nc1nc(-c2ccccc2)cs1)c1ccc(NC(=O)CN2C(=O)c3ccccc3S2(=O)=O)cc1 ; strain or isolate: KOS ; result: 20 µM
O=c1c2ncn(COC(CO)CO)c2nc2[nH]c(-c3ccc(F)cc3)cn12 ; strain or isolate: KOS ; result: 0.64 µg/mL
CCOC(=O)CSc1nnc(-c2cn(-c3ccccc3)nc2-c2ccccc2)n1N ; strain or isolate: KOS (TK-) ; result: >80 µg/mL
Nc1ccn(C[C@@H](CO)OCP(=O)(O)O)c(=O)n1 ; strain or isolate: HU-3 ; result: 2.86 µM
COc1ccc(-c2[nH]c3nc4c(ncn4COCCO)c(=O)n3c2C)cc1 ; strain or isolate: KOS ; result: 0.384 µg/mL
CC(C)NS(=O)(=O)c1ccccc1C(=O)N/N=C/c1ccc(F)cc1 ; strain or isolate: KOS ; changes: TK-deficient acyclovir-resistant ; result: >100 µM
NC1=Nn2c(nnc2-c2cn(-c3ccccc3)nc2-c2ccccc2)SC1 ; strain or isolate: KOS (TK-) ; result: >16 µg/mL
CC(=O)c1ccc(NC(=O)CN2C(=O)c3ccccc3S2(=O)=O)cc1 ; strain or isolate: KOS ; changes: TK-deficient acyclovir-resistant ; result: >100 µM
c1ccc(-c2nn3c(-c4cn(-c5ccccc5)nc4-c4ccccc4)nnc3s2)cc1 ; strain or isolate: KOS ; result: >3.2 µg/mL
CC(=O)NS(=O)(=O)c1cc(C)c(NC(=O)CN2C(=O)c3ccccc3S2(=O)=O)cc1C ; strain or isolate: KOS ; changes: TK-deficient acyclovir-resistant ; result: >100 µM
Nc1nc2c(ncn2COC(CO)CO)c(=O)[nH]1 ; strain or isolate: B2006 (TK-) ; result: 16 µM
Nc1nc2c(ncn2COC(CO)CO)c(=O)[nH]1 ; strain or isolate: KOS ; changes: TK-deficient acyclovir-resistant ; result: 10 µM
Cc1c(-c2ccc(F)cc2)[nH]c2nc3c(ncn3COCCO)c(=O)n12 ; strain or isolate: KOS ; result: 0.384 µg/mL

3 of the rows above, restated:

structure,strain or isolate,changes,result
CC(C)NS(=O)(=O)c1ccccc1-c1n[nH]c(=S)o1,KOS,,>100 µM
CC(=O)c1ccc(NC(=O)CN2C(=O)c3ccccc3S2(=O)=O)cc1,KOS,TK-deficient acyclovir-resistant,>100 µM
CC(=O)NS(=O)(=O)c1cc(C)c(NC(=O)CN2C(=O)c3ccccc3S2(=O)=O)cc1C,KOS,TK-deficient acyclovir-resistant,>100 µM